# Measured values reported in ChEMBL document CHEMBL3352189 (J Med Chem, 2014).
# Assay: Selectivity index, ratio of CC50 for african green monkey Vero 76 cells to EC50 for Venezuelan equine encephalitis virus TC83
# Type: toxicity, cell-based
compound,measurement,value
CN1CCN(C)/C(=N/c2ccc([N+](=O)[O-])cc2C(=O)Nc2ccccc2)C1,Ratio CC50/EC50,> 1670
